Results deposited as PubChem BioAssay AID1259414 (Drosophila RNAi Screening Center, 2018).
In all, the deposit lists about 24,000 reagents; shown is an unselected part of those that have a named target and a result. In the full data, about 1,210 (5%) are marked active. 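Inactive calls also include excluded dsRNAs with several or no targets, genes unexpressed in JW18, and well A1, regardless of score.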 Entries without a mark were called inactive. Reagents against one gene are numbered here.

- Screen: 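Genome-wide screen for host control of endosymbiont load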 (primary screen)
- Cells: Drosophila JW18 cells infected with Wolbachia
- Reagents: long dsRNA against Drosophila genes, 0.25 µg dsRNA per well of a 384-well plate
- Timing: 5 days
- Conditions: cells persistently infected with Wolbachia before knock-down; no added drug
- Measurement: 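Imaged fluorescence in situ signal for Wolbachia 23S rRNA per DAPI-counted host cell, given as a robust z-score within each plate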
- Scale: Wolbachia per cell robust z: higher = more Wolbachia per host cell than the plate typical
- Hit rule: 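Active if absolute robust z reaches 1.5 in two or more of three replicates, leaving out multi- or no-target dsRNAs, genes unexpressed in JW18 and A1 wells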

Depletion of CG15731 #1 came out at: Wolbachia per cell robust z, rep 1 = 0.195; Wolbachia per cell robust z, rep 2 = -0.279; Wolbachia per cell robust z, rep 3 = -0.227.
With knock-down of CG15731 #2 the results were Wolbachia per cell robust z, rep 1 = -0.142; Wolbachia per cell robust z, rep 2 = -1.36; Wolbachia per cell robust z, rep 3 = 0.681.
Against CG15731 #3, the values are Wolbachia per cell robust z, rep 1 = -0.358; Wolbachia per cell robust z, rep 2 = -0.15; Wolbachia per cell robust z, rep 3 = 0.188.
For CG13678 the deposit lists Wolbachia per cell robust z, rep 1 = 0.506; Wolbachia per cell robust z, rep 2 = 0.33; Wolbachia per cell robust z, rep 3 = 0.843.
Against Nbr (Nibbler), the entry reads Wolbachia per cell robust z, rep 1 = -0.056; Wolbachia per cell robust z, rep 2 = -3.19; Wolbachia per cell robust z, rep 3 = 0.569.
With knock-down of CG17570 #1, the screen gave Wolbachia per cell robust z, rep 1 = -0.926; Wolbachia per cell robust z, rep 2 = -0.817; Wolbachia per cell robust z, rep 3 = -1.18.
CG17570 #2 scored Wolbachia per cell robust z, rep 1 = 1.18; Wolbachia per cell robust z, rep 2 = 0.576; Wolbachia per cell robust z, rep 3 = 0.601.
After knock-down of CG30082 the results were Wolbachia per cell robust z, rep 1 = -0.162; Wolbachia per cell robust z, rep 2 = 0.27; Wolbachia per cell robust z, rep 3 = 0.128.
Silencing of CG41561 gave: Wolbachia per cell robust z, rep 1 = 0.109; Wolbachia per cell robust z, rep 2 = -0.0493; Wolbachia per cell robust z, rep 3 = 0.305.
After knock-down of AsnRS-m (Asparaginyl-tRNA synthetase, mitochondrial), the record shows Wolbachia per cell robust z, rep 1 = 0.01; Wolbachia per cell robust z, rep 2 = 0.495; Wolbachia per cell robust z, rep 3 = 0.0926.
Depletion of Nph (Nucleophosmin) gave: Wolbachia per cell robust z, rep 1 = 0.349; Wolbachia per cell robust z, rep 2 = 0.15; Wolbachia per cell robust z, rep 3 = -2.54.
With knock-down of CG3546 #1, the screen gave Wolbachia per cell robust z, rep 1 = 0.292; Wolbachia per cell robust z, rep 2 = -0.059; Wolbachia per cell robust z, rep 3 = 0.294.
Against CG3546 #2, the entry reads Wolbachia per cell robust z, rep 1 = 0.766; Wolbachia per cell robust z, rep 2 = -1.39; Wolbachia per cell robust z, rep 3 = -1.13.

An excerpt from the list above, as a working copy:
AsnRS-m (Asparaginyl-tRNA synthetase, mitochondrial) → Wolbachia per cell robust z, rep 1: 0.01; Wolbachia per cell robust z, rep 2: 0.495; Wolbachia per cell robust z, rep 3: 0.0926
Nph (Nucleophosmin) → Wolbachia per cell robust z, rep 1: 0.349; Wolbachia per cell robust z, rep 2: 0.15; Wolbachia per cell robust z, rep 3: -2.54
